Measured values from several laboratories, pooled; numbers as filed in NIAID ChemDB.

All rows: growth or infection tests; organism: HIV-1; read by: p24; read-out: EC95

Blank or dashed fields: not listed here.

structure	strain	changes	cell line	result
O=C1N(Cc2ccc(CO)cc2)[C@H](Cc2ccccc2)[C@H](O)[C@@H](O)[C@@H](Cc2ccccc2)N1Cc1ccc(CO)cc1	NL4-3	PR-L10R M46I	MT-4	0.2 µM
CCc1cc(NCc2nc3ccccc3o2)c(=O)[nH]c1C	IIIB		H9	0.9 µM
O=C(N[C@H]1c2ccccc2OC[C@H]1O)[C@H](Cc1cccnc1)C[C@H](O)CN1CCN(Cc2ccn(-c3ccc(C(F)(F)F)cc3)c2)C[C@H]1C(=O)NCC(F)(F)F	Q-60C Clinical isolate	PR-L10I N37S R41K M46I I54V I62V L63P A71V V77I V82A L90M I93L	MT-4	≤0.008 µM
CC(C)c1ccccc1-n1nnnc1SCC(=O)Nc1ccccc1Cl			MT-4	<10 µM
O=C(N[C@H]1c2ccccc2OC[C@H]1O)[C@H](Cc1cccnc1)C[C@H](O)CN1CCN(Cc2ccn(-c3cccc(Cl)c3)c2)C[C@H]1C(=O)NCC(F)(F)F	K-60C Clinical isolate	PR-L10I M46I I54V Q58E L63P I64V V77I V82F I84V L90M I93L	MT-4	≤0.008 µM
CC(C)=CCN1Cc2cccc3[nH]c(=S)n(c23)C[C@@H]1C	rHXB2		MT-4	0.1 µM
CC(C)CN(C[C@@H](O)[C@H](Cc1ccccc1)NC(=O)[C@H](CC(N)=O)NC(=O)c1ccc2ccccc2n1)C(=O)NC(C)(C)C	Isolate A PR L10V/T12I/G16E/R57K/I64V	PR-L10V T12I G16E R57K I64V	PBMC	0.2 µM
COc1cncc(-c2cnc(C(C)(C)N3CCN(C[C@@H](O)C[C@@H](Cc4nnc(-c5ccccc5)o4)C(=O)N[C@H]4c5ccccc5OC[C@H]4O)[C@H](C(=O)NCC(F)(F)F)C3)o2)c1	NL4-3 WT		MT-4	0.125 µM
CCc1cc(NCc2nc3c(C)ccc(C)c3o2)c(=O)[nH]c1C	WMJ-2		MT-4	0.1 µM
CCCc1nnc(C[C@H](C[C@H](O)CN2CCN(Cc3ccc(-c4ccc(Cl)cc4)o3)C[C@H]2C(=O)NCC(F)(F)F)C(=O)N[C@H]2c3ccccc3OC[C@H]2O)o1	Q-60 Clinical isolate	PR-L10I N37S R41K M46I I54V I62V L63P A71V V77I V82A L90M I93L	MT-4	0.016 µM
Cc1cccc(-n2ccc(CN3CCN(C[C@@H](O)C[C@@H](Cc4cccnc4)C(=O)N[C@H]4c5ccccc5OC[C@H]4O)[C@H](C(=O)NCC(F)(F)F)C3)c2)c1	NL4-3 WT		MT-4	≤0.008 µM
CC(C)(c1ncc(-c2ccc(F)cc2)o1)N1CCN(C[C@@H](O)C[C@@H](Cc2nnc(-c3ccccc3)o2)C(=O)N[C@H]2c3ccccc3OC[C@H]2O)[C@H](C(=O)NCC(F)(F)F)C1	Q-60 Clinical isolate	PR-L10I N37S R41K M46I I54V I62V L63P A71V V77I V82A L90M I93L	MT-4	0.016 µM
O=C(N[C@H]1c2ccccc2OC[C@H]1O)[C@H](Cc1cccnc1)C[C@H](O)CN1CCN(Cc2ccn(-c3ccc(Cl)cc3)c2)C[C@H]1C(=O)NCC(F)(F)F	NL4-3 WT		MT-4	≤0.008 µM
CCCc1nnc(C[C@H](C[C@H](O)CN2CCN(C(C)(C)c3ncc(-c4ccc(Cl)cc4)o3)C[C@H]2C(=O)NCC(F)(F)F)C(=O)N[C@H]2c3ccccc3OC[C@H]2O)o1	NL4-3 WT		MT-4	≤0.008 µM
O=C(N[C@H]1c2ccccc2OC[C@H]1O)[C@H](Cc1cccnc1)C[C@H](O)CN1CCN(Cc2ccn(-c3ccccc3)c2)C[C@H]1C(=O)NCC(F)(F)F	K-60C Clinical isolate	PR-L10I M46I I54V Q58E L63P I64V V77I V82F I84V L90M I93L	MT-4	0.031 µM
CCc1cc(NCc2nc3ccccc3o2)c(=O)[nH]c1C	A17		MT-4	100 µM
O=C(CSc1nnnn1-c1cccc(Cl)c1Cl)Nc1ccccc1[N+](=O)[O-]			MT-4	<10 µM
CCCc1nnc(C[C@H](C[C@H](O)CN2CCN(C(C)(C)c3ncc(-c4ccc(F)cc4)o3)C[C@H]2C(=O)NCC(F)(F)F)C(=O)N[C@H]2c3ccccc3OC[C@H]2O)o1	V-18 Clinical isolate	PR-L10I M36I N37D M46I R57K L63P A71V G73S I84V L90M I93L	MT-4	0.063 µM
Cc1cc(C)c(-n2nnnc2SCC(=O)Nc2ccc(C#N)cc2)c(C)c1			MT-4	<10 µM
CC(C)(c1ncc(-c2ccc(Cl)cc2)o1)N1CCN(C[C@@H](O)C[C@@H](Cc2nnco2)C(=O)N[C@H]2c3ccccc3OC[C@H]2O)[C@H](C(=O)NCC(F)(F)F)C1	NL4-3 WT		MT-4	0.125 µM
Cc1ccnc2c1NC(=O)c1cccnc1N2C1CC1	rA17		MT-4	100 µM
O=C(N[C@H]1c2ccccc2OC[C@H]1O)[C@H](Cc1cccnc1)C[C@H](O)CN1CCN(Cc2ccn(-c3cccc(C(F)(F)F)c3)c2)C[C@H]1C(=O)NCC(F)(F)F	Q-60C Clinical isolate	PR-L10I N37S R41K M46I I54V I62V L63P A71V V77I V82A L90M I93L	MT-4	≤0.008 µM
CC(C)(c1ncc(-c2ccc(F)cc2)o1)N1CCN(C[C@@H](O)C[C@@H](Cc2nnco2)C(=O)N[C@H]2c3ccccc3OC[C@H]2O)[C@H](C(=O)NCC(F)(F)F)C1	K-60 Clinical isolate	PR-L10I M46I I54V Q58E L63P I64V V77I V82F I84V L90M I93L	MT-4	0.125 µM
O=C(N[C@H]1c2ccccc2OC[C@H]1O)[C@H](Cc1cccnc1)C[C@H](O)CN1CCN(Cc2ccn(-c3cc(Cl)c(Cl)c(Cl)c3)c2)C[C@H]1C(=O)NCC(F)(F)F	NL4-3 WT		MT-4	≤0.008 µM
Cc1cc(C)c(-n2nnnc2SCC(=O)Nc2ccc(F)cc2C)c(C)c1			MT-4	<10 µM

A second listing of 3 rows from above:

structure | strain | changes | cell line | result
CC(C)(c1ncc(-c2ccc(F)cc2)o1)N1CCN(C[C@@H](O)C[C@@H](Cc2nnco2)C(=O)N[C@H]2c3ccccc3OC[C@H]2O)[C@H](C(=O)NCC(F)(F)F)C1 | K-60 Clinical isolate | PR-L10I M46I I54V Q58E L63P I64V V77I V82F I84V L90M I93L | MT-4 | 0.125 µM
CC(C)(c1ncc(-c2ccc(Cl)cc2)o1)N1CCN(C[C@@H](O)C[C@@H](Cc2nnco2)C(=O)N[C@H]2c3ccccc3OC[C@H]2O)[C@H](C(=O)NCC(F)(F)F)C1 | NL4-3 WT |  | MT-4 | 0.125 µM
CCc1cc(NCc2nc3ccccc3o2)c(=O)[nH]c1C | IIIB |  | H9 | 0.9 µM

ECn is the concentration giving n% inhibition of infection, replication or growth. Rows are shuffled and stem from different studies.